Source: PubChem BioAssay AID624099 (ICCB-Longwood, 2012)
Shown is a random part of about 21,000 deposited reagents. 497 of them (2.4%) count as active. 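Higher z means weaker E2 silencing; only reporter increases were scored, and knock-downs that hurt cell survival may mask genuine repressor factors.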 Entries without a mark were called inactive.

Purpose: 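Human genes that papillomavirus E2 requires to repress the HPV18 LCR promoter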 (primary screen)
Cell system: human C33A cervical carcinoma cells (HPV-negative) stably expressing BPV1 E2 and an HPV18 LCR luciferase reporter
Reagents: siRNA pool against human genes, 40 nM
Duration: 72 h
Measurement: 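Per-well luciferase luminescence, z-scored on each plate against the plate mean and SD with control wells left out, then averaged across three replicate plates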
Reading the numbers: mean z-score and z-score: higher = stronger reporter signal, weaker E2 silencing
Rule for the call: 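Hit if mean z-score reaches 2 and two or more of three replicate z-scores also reach 2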

no.	Target gene	mean z-score	z-score, replicate A	z-score, replicate B	z-score, replicate C
1	BEND3	1.7	1.41	1.52	2.17
2	AVPR1B	0.69	1.03	0.4	0.63
3	SELENOI	-1.06	-0.92	-1.14	-1.14
4	ABCC5	-0.33	-0.03	-0.37	-0.6
5	LOC389888 (retired record)	0.07	0.53	-0.23	-0.1
6	SLC25A10	0.25	0.29	-0.08	0.52
7	MRPL40	0.74	0.7	0.55	0.98
8	AGMO	-0.26	0	-0.38	-0.38
9	ARID2	0.47	0.61	0.55	0.26
10	KRTAP19-5	-1.25	-1.19	-1.16	-1.39
11	NRG3	0.8	0.54	1.09	0.77
12	PLLP	0.87	0.72	0.89	1
13	LOC400781 (retired record)	0.25	0.3	0.2	0.25
14	RBM23	-1.02	-1.3	-1.53	-0.24
15	ACP1	-1.39	-1.32	-1.42	-1.42
16	BCCIP	1.06	1.29	1.06	0.81
17	EOMES	1.34	1.48	1.42	1.12
18	LOC400201 (retired record)	-0.56	-0.57	-0.99	-0.1
19	RPS14	-1.18	-1.34	-1.24	-0.96
20	ADAM22	0.27	0.48	0.11	0.23
21	TEX261	-0.37	-0.53	-0.22	-0.35
22	JAK2	-3.83	-3.65	-4.17	-3.66
23	RPS4Y2	0.19	0.04	0.53	-0.01
24	ALS2CL	-0.22	-0.05	-0.34	-0.27
25	KRT31	0.69	0.64	0.76	0.68
26	MGAM	1.51	1.52	1.55	1.46
27	C10orf120	0.35	0.22	0.23	0.59
28	MED25	-0.87	-0.96	-0.83	-0.82
29	THOP1	0.28	0.35	0.45	0.05
30	H4C12	0.62	0.86	0.39	0.61
31	CX3CR1	1.43	1.63	1.23	1.44
32	LOC400164 (retired record)	0.1	0.2	0.1	0.01
33	BAGE2	-0.12	-0.52	-0.2	0.35
34	ACBD6	-1.5	-1.45	-1.41	-1.64
35	LOC401605 (retired record)	-0.15	-0.09	0.07	-0.44
36	SEC22A	0.19	0	-0.06	0.62
37	DPYD	0.21	0.58	0.13	-0.09
38	PDIA5	-1.97	-2.15	-2.07	-1.69
39	JAM2	-0.92	-0.53	-1.06	-1.16

Copied from above, 3 entries:
no.	Target gene	mean z-score	z-score, replicate A	z-score, replicate B	z-score, replicate C
2	AVPR1B	0.69	1.03	0.4	0.63
3	SELENOI	-1.06	-0.92	-1.14	-1.14
4	ABCC5	-0.33	-0.03	-0.37	-0.6
